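Phenotypic screen: M. tuberculosis growth, glucose 7H9 medium, 3 days; the read-out is not stated. Tested at 50 µM. Direction is inferred from retests: higher values go with more growth inhibition. About 69,000 compounds were tested under these conditions; 1.1% (about 760) showed 50% or more at least once.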

Results are given as percent effect. How 0% and 100% were set is not recorded. Most values in the screen are low, and negative values occur. The entries come from a sample that favours strong results. Two or more numbers in one place are separate tests of the same structure; such repeats can differ widely.

compound	effect
Cc1ccc(CSc2nc(N)cc(NCCC(=O)N3CCCC3)n2)cc1	37.2% and 12.89%
COc1ccccc1C(O)CNC(=O)NCc1csc(C)n1 (configuration not stated)	-28.44% and 0.4063%
O=C(NCCn1ccnc1)c1ccn(-c2ccccc2F)n1	-27.31%
COc1ccnc(N2CCCN(c3nc(C4CC4)ns3)CC2)n1	74.83%
[H][C@]12CC[C@@]([H])(C1)N(Cc1cc(-c3ccccc3)no1)C2	25.3%
Cc1ccsc1-c1cccc(-c2ccn(CC3CCNC3)n2)c1 (configuration not stated)	53.91%
COc1ccc(-c2nc(CN3CCN(CCO)CC3)co2)cc1	-3.717%
c1cc(-c2ccc3c(c2)CCC32CCN(c3nncs3)CC2)co1	-37.6%
Cc1nc(N)ncc1C(=O)N1CCCC(CCc2ccc(F)cc2)C1 (configuration not stated)	-0.4973% and -9.165%
Cn1cc(CN2CCCC(CCc3ccc(F)cc3F)C2)cn1 (configuration not stated)	2.071%
COC(=O)c1ncccc1N1CCC(C(O)c2ccccc2)CC1 (configuration not stated)	-31.43%
COc1ccc(-n2cc(CNC(=O)c3cscn3)nn2)cc1	17.58% and -2.622%
CC(C)c1cc(CN2CCC(CC(=O)O)CC2)no1	-7.141%
CN(C)C(=O)c1cccc(CNc2ccc(C#N)cn2)c1	0.8814%
Cc1cnn(CC2CCCN2Cc2ncc(-c3ccc(F)cc3)o2)c1 (configuration not stated)	96.79%
CN(CC1COc2ccccc2O1)C(=O)CCn1cncn1 (configuration not stated)	6.301%
CCSc1nsc(NC(=O)COc2ccc3c(c2)OCO3)n1	59.61% and 15.4%
Cc1nc(N)cc(N2CCCC(COc3cccc(F)c3)C2)n1 (configuration not stated)	61.39%
Cc1nnc(CSc2n[nH]c(-c3ccccn3)n2)o1	-55.35% and -3.299%
CCOc1ccc(N2CCCN=C2NC(=O)c2ccc(Cl)cc2)cc1	61.44%
CC(Cn1cccn1)NS(=O)(=O)Cc1ccccc1 (configuration not stated)	97.1%
O=C(c1cc[nH]n1)N1CCCC(c2cccc(-n3ccnc3)n2)C1 (configuration not stated)	85.39%
c1ccc(OCCSC2=NCCN2)cc1	32.06%
Cc1ccc(N2N=C(C(N)=O)S(=O)(=O)c3cccnc32)cc1	101.9%
Cc1noc(NCc2ccc(F)cc2)n1	7.056%
Cc1nc(CNCc2cccc(OC34CCCN(CC3)C4)c2)n[nH]1 (configuration not stated)	9.222%
C1CCC(NC2CCCN(Cc3noc(C4CC4)n3)C2)C1 (configuration not stated)	3.983% and 5.813%
CCCc1nc2c(c(C)c(C)n2Cc2cccnc2)c(N)c1CC	17.67% and 18.11%
CCn1nccc1CNC(=O)C1CCCO1 (configuration not stated)	8.513%
Cc1ncc2c(n1)CCCC2NC(=O)c1ccncc1 (configuration not stated)	-53.07%
Clc1ccccc1-c1nnc(CNCCn2cccn2)o1	10.07%
CC(CNC(=O)c1cc(-n2cccn2)ccn1)Cn1ccnc1 (configuration not stated)	-15.15%
O=C(Nc1ccccn1)c1csc(NC2CCCC2)n1	35.58% and 48.73%
O=C(c1ccc(O)c(Cl)c1)N1CCN(c2nccs2)CC1	-7.199%
CCCc1ncc(CN(CCOC)Cc2cccs2)cn1	16.85% and 14.29%
Cc1ccc(S(=O)(=O)NCC(C)(C)N)c(F)c1.Cl	6.354%
c1cncc(NCCNC2CSCCSC2)c1	-12.54%
CCc1c(C)sc2ncnc(N3C[C@H](O)[C@@H](N4CCCC4)C3)c12	-11.19%
COc1ncccc1CNC(=O)c1cccc(C)n1	-4.576%
CCN1c2ccc(-c3cncn3CCCn3ccnc3C)cc2CC1C.Cl (configuration not stated)	57.44%
Cc1ncc(CN(C)C(=O)Nc2cccc(N3CCNC3=O)c2)s1	-18.2%
O=C1CCCN1CCc1noc(-c2ccc(Cl)cc2)n1	-13.18%
Cc1ccc(-c2noc(CN3CC(n4cc(C)cn4)C3)n2)cc1	79.83%
Cc1nnc(N2CC[C@H](OCC3CC3)[C@@H](Cc3ccccc3)C2)s1.O=C(O)C(F)(F)F	33.85%
O=C(NCC1CC1)c1nnc2ccc(Cl)cc2n1	71.3% and 75.77%
COc1ccc(Oc2ccc(C(F)(F)F)cn2)cc1CN1CCCC1	34.57%
N#Cc1cnc2cc(F)cc(F)c2c1NC1CCN(CC(N)=O)CC1	110.5% and -4.128%
CC(O)CNc1c(NCc2ccco2)c(=O)c1=O (configuration not stated)	3.709%
O=C(NCCc1c[nH]c2ccccc12)C1CCC(Cn2cnnn2)CC1 (configuration not stated)	-8.585%
CSc1ncnc(NCc2ccco2)c1C#N	-3.598% and 15.27%
COCCC(=O)N1CCCC(CCc2ccc(F)c(F)c2)C1 (configuration not stated)	33.26%
O=C(NCCSC1CCCC1)c1cc(Cl)ccn1	-22.46%
COc1cc2cc3c(nc2cc1OC)OCCN(CC1CC1)C3	10.45%
O=S(=O)(CCSc1nccn1C1CC1)c1ccccc1	-14.93%
CCn1c(SCC(N)=O)nnc1-c1csc2c1CCCC2	-5.57%
COc1ccccc1CNCc1nn(-c2ccccc2)c2c1CCC2	53.06%
NCc1n[nH]c(-c2cccc(F)c2)n1	-7.661% and -26.02%
COC(=O)N1CCC(Nc2cccc(F)c2C#N)CC1	25.3%
CC(C)COc1cncc(N2CCCN(c3ncccn3)CC2)n1	8.088%
c1ccc(C(NCc2nnc(-c3ccco3)o2)C2CCC2)cc1 (configuration not stated)	52.25%
COc1ccc(CCn2cnnc2[S+](C)[O-])cc1 (configuration not stated)	17.74%
Cc1ccc(C)c(-n2ncc(NC(=O)NC3(C)CCOC3)c2C)c1 (configuration not stated)	-30.67%
CCn1nnc(NCc2cc(Cl)cc(Cl)c2OC)n1	3.859%
Cc1cc(C)cc(NCCC(=O)NC2CCCCC2)c1	18.95% and 8.203%
O=C(NCc1cnn2cccnc12)c1cccc(CC2CCNCC2)c1	79.2% and 69.56%
[H][C@]12CC[C@]([H])(CN(S(=O)(=O)c3cccc(F)c3)C1)N(Cc1ccccc1)C2	52.45%
c1ccc(COc2ccccc2CNC2CCc3ncnn3C2)cc1 (configuration not stated)	8.232%
Cc1ccc(CN2CCC3(CC(=O)N(c4cccc(F)c4)C3)C2)o1.O=C(O)C(F)(F)F (configuration not stated)	33.52% and 29.59%
CCc1ocnc1C(=O)N1CCOC(CCCC(C)C)C1 (configuration not stated)	28.95% and 26.65%

8 of the entries, repeated:

compound	effect
COc1ccnc(N2CCCN(c3nc(C4CC4)ns3)CC2)n1	74.83%
Cc1noc(NCc2ccc(F)cc2)n1	7.056%
[H][C@]12CC[C@@]([H])(C1)N(Cc1cc(-c3ccccc3)no1)C2	25.3%
COc1ccccc1C(O)CNC(=O)NCc1csc(C)n1 (configuration not stated)	-28.44% and 0.4063%
NCc1n[nH]c(-c2cccc(F)c2)n1	-7.661% and -26.02%
CCCc1nc2c(c(C)c(C)n2Cc2cccnc2)c(N)c1CC	17.67% and 18.11%
Cc1ccc(N2N=C(C(N)=O)S(=O)(=O)c3cccnc32)cc1	101.9%
O=C(Nc1ccccn1)c1csc(NC2CCCC2)n1	35.58% and 48.73%

From ChEMBL document CHEMBL3988442, “University of Dundee, Small-Polar-MMV Screening Library” (2021).